Measured values from several laboratories, pooled; numbers as filed in NIAID ChemDB.

Shared fields: host cell toxicity; measure: CC50

CCn is the concentration with n% toxicity to the cells. An empty or dashed field is not shown. Lines come from different laboratories, so protocols vary. Two numbers with a dash give a range or band.

S=c1cc(-c2ccccc2)s[nH]1 ; cells: L929 ; result: 90 µM
CC1(C)[C@@H](CO)CC[C@@]1(C)Cn1cc(Br)c(=O)[nH]c1=O ; cells: E6SM ; result: >400 µg/mL
COc1ccc(Nc2nc(NCCCNc3ccnc4cc(Cl)ccc34)nc(N3CCOCC3)n2)cc1 ; cells: LLC-Pk11 ; result: 27.8 µM
C=C1[C@H](O)[C@H](CO)O[C@@H]1n1ccc(N)nc1=O ; cells: FLOW 2002 ; result: >100 µg/mL
Cc1cc(C2CC2)n2nc(S(=O)(=O)Nc3c(C)ccc(Cl)c3C)nc2n1 ; cells: K562 (CRL-1573) ; read by: WST ; result: 90 µg/mL
CS(=O)(=O)C1(c2ccc(C(=O)NC34CC(c5nc(-c6ccc(Cl)cc6)cs5)(C3)C4)o2)CC1 ; cells: Primary human hepatocytes ; read by: absorbance ; result: 27.88 µM
CCCCCCOC(=O)Nc1ncnn2c([C@@H]3O[C@H](CO)[C@@H](O)[C@@]3(C)O)ccc12 ; cells: Caco2 ; read by: MTS ; result: 9.3 µM
CS(=O)(=O)C1(c2ccc(C(=O)NC34CC(c5nc(-c6ccc(Cl)cc6)ns5)(C3)C4)o2)CC1 ; cells: Primary human hepatocytes ; read by: absorbance ; result: 39.05 µM
Nc1nc(=O)n([C@H]2O[C@@H](CO)[C@H](O)[C@H]2F)cc1I ; cells: FLOW 2002 ; result: 100 µg/mL
CCCc1cc(=O)oc2c3c(c4c(c12)OC(C)(C)CC4)O[C@@H](C)[C@H](C)[C@@H]3O ; cells: CEMx174 ; result: 10–20 µM
NC(=S)Nc1cccc(OCCCCCCCOc2cccc3ccccc23)c1 ; cells: Ava5-EG(delta4AB)SEAP ; read by: MTS ; result: >1 µM
CSc1nsc(-c2ccc(C(F)(F)F)cc2)c1C#N ; cells: L929 ; result: 14 µM
C#CCOCc1cn(C2CCON2C(=O)OCc2ccccc2)c(=O)[nH]c1=O ; cells: CEM-GFP ; read by: MTS ; result: 1053 µM
CC(=O)C[C@@H]1C[C@H]2[C@H]([C@@H]3c4[nH]c5ccccc5c4CCN13)[C@H](O)C13CC/C=C\CCCCN1CC21CC/C=C\CCCNC13 ; cells: H-116 ; result: 5 µg/mL
CCOC(=O)c1cc(O)c(O)c(O)c1 ; cells: U-87 ; read by: MTS ; result: >200 µM
CCCNCc1ccc(OCC(=O)OCC)cc1 ; cells: RAJI ; result: >20 µM
O=C(OCc1ccccc1)N1OCCC1n1cc(COCc2ccccc2)c(=O)[nH]c1=O ; cells: CEM-GFP ; read by: MTS ; result: 1127 µM
Nc1ccn([C@H]2O[C@@H](CO)[C@H](O)[C@H]2F)c(=O)n1 ; cells: FLOW 2002 ; result: 100 µg/mL
CC1(C)[C@@H](CO)CC[C@@]1(C)Cn1cnc2c(Cl)ncnc21 ; cells: E6SM ; result: >400 µg/mL
CCOC(=O)COc1ccccc1CN(C(=O)c1ccc(-c2ccc3c(c2)OCO3)cc1)C(C)C ; cells: BJ ; result: >20 µM
CC(C)COC(=O)Nc1ncnn2c([C@@H]3O[C@H](CO)[C@@H](O)[C@@]3(C)O)ccc12 ; cells: Caco2 ; read by: MTS ; result: >100 µM
CSc1nsc(-c2ccccc2)c1C#N ; cells: L929 ; result: 20 µM
Clc1ncnc2c1ncn2C1C[C@H]2C[C@@H]1c1cscc12 ; cells: Huh ; result: 16 µM
O=c1[nH]c(=O)n([C@@H]2O[C@H](CO)[C@@H](O)[C@@H]2O)cc1/C=C/Br ; cells: P3HR-1 ; result: 390 µM
CCOC(=O)c1ccc(OCCCCCOc2cccc(NC(N)=S)c2)cc1 ; cells: Ava5-EG(delta4AB)SEAP ; read by: MTS ; result: >1 µM
OCCCNc1nc(NCCCCNc2ccnc3cc(Cl)ccc23)nc(N2CCCCC2)n1 ; cells: LLC-Pk11 ; result: 27.4 µM
Nc1ncnc2c1ncn2C1C[C@H]2C[C@@H]1c1ccsc12 ; cells: Huh ; result: 14 µM
Cc1ccc(-c2ccccc2OCCCCCOc2cccc(NC(N)=S)c2)cc1 ; cells: Ava5-EG(delta4AB)SEAP ; read by: MTS ; result: >1 µM
CCN1C(=O)C(C)c2cc(C(=O)CN3CCN(c4noc5cccc(Cl)c45)CC3)ccc21 ; cells: RAW 264.7 ; read by: MTT ; result: 61.88 µg/mL
CC(C)(c1cccc(C(=O)NC23CC(c4nc(-c5ccc(Cl)cc5)no4)(C2)C3)c1)S(C)(=O)=O ; cells: Primary human hepatocytes ; read by: absorbance ; result: 11.94 µM
CCOC(=O)CC(=O)NCC(OCC)(OCC)c1ccc2c(c1)OCO2 ; cells: HEK 293 ; result: <7.5 µM
Cc1ccnc2c1NC(=O)c1cccnc1N2C1CC1 ; cells: MOLT-3 ; read by: MTS ; result: >1000 µM
CCOC(=O)CCCCCOc1cccc(CN(C(=O)c2ccc(-c3cccc(CC(=O)O)c3)cc2)C(C)C)c1 ; cells: BJ ; result: >20 µM
NC(=S)Nc1cccc(OCCCCCc2ccccc2)c1 ; cells: Ava5-EG(delta4AB)SEAP ; read by: MTS ; result: >1 µM
Clc1ncnc2c1ncn2C1C[C@H]2C[C@@H]1[C@H]1CSC[C@@H]21 ; cells: Huh ; result: 17 µM
CSc1nsc(-c2cc[n+](C)cc2)c1C#N ; cells: L929 ; result: 1000 µM
Cc1cc(C2CC2)n2nc(S(=O)(=O)Nc3c(C)cccc3C(C)C)nc2n1 ; cells: HEPG2 (HB-8065) ; read by: WST ; result: >128 µg/mL
Nc1nc(=O)c2ncn([C@@H]3O[C@H](CO)[C@@H](O)[C@H]3O)c2c(=O)[nH]1 ; cells: CFU-GM ; result: 52 µM
Cc1cc(C)n2nc(S(=O)(=O)Nc3c(Cl)ccc(C)c3Cl)nc2n1 ; cells: HEPG2 (HB-8065) ; read by: WST ; result: >128 µg/mL
Clc1ncnc2c1ncn2C1C[C@H]2C[C@@H]1c1ccsc12 ; cells: Huh ; result: 28 µM
CCN1C(=O)C(C)c2cc(C(=O)CN3CCN(c4noc5cc(Cl)ccc45)CC3)ccc21 ; cells: RAW 264.7 ; read by: MTT ; result: 56.05 µg/mL
CS(=O)(=O)C1(c2nsc(C(=O)NCCC3(c4ccnc(-c5ccc(Cl)cc5)n4)CCC3)n2)CC1 ; cells: Primary human hepatocytes ; read by: absorbance ; result: 127 µM
CC(=O)N1c2ccccc2NC2=C(C(=O)CC(C)(C)C2)C1c1ccc(OCc2ccccc2)cc1 ; cells: Huh7-CMV-Luc ; result: >32 µM
NC(=S)Nc1cccc(OCCCCCOc2ccc(N3CCOCC3)cc2)c1 ; cells: Ava5-EG(delta4AB)SEAP ; read by: MTS ; result: >1 µM
CC1(C)[C@@H](CO)CC[C@@]1(C)Cn1cc(I)c(=O)[nH]c1=O ; cells: E6SM ; result: >400 µg/mL
CC(C)OC(=O)[C@H](C)N[P@](=O)(OC[C@H]1O[C@@H](c2ccc3c(N)ncnn23)[C@](C)(O)[C@@H]1O)OC(=O)C(C)C ; cells: Caco2 ; read by: MTS ; result: 43 µM
O=C(OCc1ccccc1)N1OCCC1n1cc(COCc2cn(CCO)nn2)c(=O)[nH]c1=O ; cells: CEM-GFP ; read by: MTS ; result: 427 µM
CCOC(=O)CCCCCOc1cccc(CN(C(=O)c2ccc(-c3cccc(OC)c3)cc2)C(C)C)c1 ; cells: HepG2 ; result: >20 µM
O=S(=O)(Cc1c(Cl)c(Cl)c(Cl)c(Cl)c1Cl)c1cccc[n+]1[O-] ; cells: U1 ; read by: MTT ; result: 27 µg/mL
CNc1ncnc2c1ncn2[C@H]1CO[C@@H](CO)C1 ; cells: ATH8 ; result: >100 µM
CSc1nsc(-c2cccs2)c1C#N ; cells: HEP-2 ; result: 6 µM
Nc1ccn([C@H]2O[C@@H](CO)[C@H](O)[C@@H]2O)c(=O)n1 ; cells: FLOW 2002 ; result: 100 µg/mL
CCO[P+](O)(OCC)[C@H]1C[C@H](C[N+]2=CC(F)C(=O)NC2=O)N(C)O1 ; cells: MOLT-3 ; read by: MTS ; result: >1000 µM
CC(C)N(Cc1cccc(OCCCCCC(=O)OC(=O)O)c1)C(=O)c1ccc(-c2cccc3ccccc23)cc1 ; cells: HEK 293 ; result: >20 µM
Nc1ccn([C@H]2O[C@@H](CO)[C@H](O)[C@H]2O)c(=O)n1 ; cells: FLOW 2002 ; result: 100 µg/mL
O=C(Nc1cc(C(F)(F)F)ccc1N1CCCCC1)c1ccncc1 ; cells: Huh7/Rep-Feo1b ; read by: MTS ; result: >30 µM
CS(=O)(=O)C1(c2cc(C(=O)NC34CC(c5nc(-c6ccc(Cl)cc6)no5)(C3)C4)ccn2)CC1 ; cells: Primary human hepatocytes ; read by: absorbance ; result: 6.92 µM
Cn1cc(C(=O)NCc2ccc(Cl)cc2)c(=O)c2cc(CN3CCOCC3)ccc21 ; cells: CBL ; read by: MTS ; result: >23.5 µM
NC(=S)Nc1cccc(OCCCCCOc2ccc(N3CCSCC3)cc2)c1 ; cells: Ava5-EG(delta4AB)SEAP ; read by: MTS ; result: >1 µM
CCCCCOC(=O)Nc1ncnn2c([C@@H]3O[C@H](CO[P@@](=O)(N[C@@H](C)C(=O)OC(C)C)Oc4ccccc4)[C@@H](O)[C@@]3(C)O)ccc12 ; cells: Caco2 ; read by: MTS ; result: 20 µM
C/C(=N\NC(=O)c1ccc([N+](=O)[O-])cc1)c1cccc(/C(C)=N/NC(=O)c2ccc([N+](=O)[O-])cc2)n1 ; cells: Jurkat cells ; read by: MTT ; result: >100 µM
CCN1C(=O)Cc2cc(C(=O)CN3CCN(c4noc5cc(Cl)ccc45)CC3)ccc21 ; cells: RAW 264.7 ; read by: MTT ; result: 78.81 µg/mL
CS(=O)(=O)C1(c2ccc(C(=O)NC34CC(c5ccn(-c6ccc(Cl)cc6)n5)(C3)C4)o2)CC1 ; cells: Primary human hepatocytes ; read by: absorbance ; result: 13.39 µM
COc1ccc(C[C@H](N)C(=O)N[C@H]2[C@@H](O)[C@H](n3cnc4c(N(C)C)ncnc43)O[C@@H]2CO)cc1 ; cells: HEPG2 (HB-8065) ; read by: WST ; result: 0.24 µg/mL
CCN1C(=O)Cc2cc(C(=O)CN3CCN(c4ccccn4)CC3)ccc21 ; cells: RAW 264.7 ; read by: MTT ; result: 94.26 µg/mL
Nc1ccn([C@H]2O[C@@H](CO)[C@@H](O)[C@@H]2O)c(=O)n1 ; cells: FLOW 2002 ; result: >100 µg/mL
O=C(NCc1ccc(Cl)cc1)c1cn2c(CCO)cc3cc(CN4CCOCC4)cc(c1=O)c32 ; cells: DAUDI ; read by: MTS ; result: >104 µM
CCN1C(=O)C(C)c2cc(C(=O)CN3CCN(c4ccc([N+](=O)[O-])cc4)CC3)ccc21 ; cells: RAW 264.7 ; read by: MTT ; result: 81.38 µg/mL

For reference, 4 entries again:

compound,cells,read by,result
NC(=S)Nc1cccc(OCCCCCCCOc2cccc3ccccc23)c1,Ava5-EG(delta4AB)SEAP,MTS,>1 µM
C#CCOCc1cn(C2CCON2C(=O)OCc2ccccc2)c(=O)[nH]c1=O,CEM-GFP,MTS,1053 µM
CS(=O)(=O)C1(c2ccc(C(=O)NC34CC(c5nc(-c6ccc(Cl)cc6)cs5)(C3)C4)o2)CC1,Primary human hepatocytes,absorbance,27.88 µM
COc1ccc(Nc2nc(NCCCNc3ccnc4cc(Cl)ccc34)nc(N3CCOCC3)n2)cc1,LLC-Pk11,,27.8 µM